Strings that start with PEPTIDE1 are HELM notation: dots part the residues, brackets hold end groups and non-standard residues.
Experiment: peptide made by a vendor (Fmoc solid-phase peptide synthesis; Fmoc-Gly Wang Resin; TBTU, N-methylmorpholine)
Details: whole synthesis, RP-HPLC, scale of the general procedure 0.5 g resin

## PEPTIDE1{G.R.F.K.R.L.R.K.K.L.K.K.L.F.K.K.L.S.P.V.I.P.L.L.H.L.G}$$$$V2.0
  final purity (method not given): exceeding 95%

Reference: PMC12207908 (mLife, 2025)
